The values below come from PMC9115111, “Metalloprotease Gp63-Targeting Novel Glycoside Exhibits Potential Antileishmanial Activity” (Frontiers in Cellular and Infection Microbiology, 2022).

SMILES strings stand for the structures.

In this data set the test system is J774.A1 murine macrophage cells. Nature of the data set: MTT cell viability assay on macrophages. Format: cell-based. The following applies: selectivity index = CC50 / IC50 against promastigotes. The method, then: The J774.A1 murine macrophage cells were grown in Roswell Park Memorial Institute (RPMI) 1640 medium in the presence of 10% (v/v) FBS and 100 U/ml penicillin−100 µg/ml streptomycin (Gibco, Invitrogen, Thermo Fisher Scientific, NY, USA) at 37°C (humidified) and 5% CO2. […] Madin–Darby canine kidney (MDCK) cells were obtained from the National Centre for Cell Science, Pune, India. MDCK cells were derived from the kidney tissue of an adult female Cocker Spaniel. These were grown in Dulbecco’s modified Eagle’s minimal essential medium (DMEM) in the presence of 10% (v/v) FBS and 100 U/ml penicillin−100 µg/ml streptomycin (Gibco, Invitrogen, Thermo Fisher Scientific, NY, USA) at 37°C (humidified) and 5% CO2 ([Ayana et al., 2018]; [Shivappagowdar et al., 2021]).
All the compounds were dissolved in dimethyl sulfoxide (DMSO) (Sigma-Aldrich) for 1 mM stock solution and were screened against promastigotes at a concentration of 5 µM. For Glycosides (Gly) 2, 6, and 8, a range of concentrations starting from 100 nM to 100 µM were screened against promastigote forms of parasite and mammalian cells. Parasites (AG83 and PKDL strain) treated with amphotericin B (3 µg/ml) (Sigma-Aldrich) were maintained as the positive control.
To evaluate the cytotoxic effects of 12 compounds on L. donovani promastigotes, LDH assay was performed. This assay involves the reduction of tetrazolium salts to formazan during LDH-mediated catalysis of lactate to pyruvate, which can be detected at […]. Rate of formazan formation is proportional to the release of LDH through damaged cell membranes. For the preliminary screening, the promastigotes were incubated with 12 compounds at a single concentration of 5 µM for a period of 72 h, and the released LDH was estimated ( Supplementary Figure S1A ). Amphotericin B-treated promastigotes were taken as the positive control. […] Having observed the antileishmanial effect of Gly2 on growth and proliferation of promastigotes, we next investigated the cytotoxicity of Gly2 on mammalian cells (MDCK, J774.1A) through MTT (3-(4, 5-dimethylthiazolyl-2)-2, 5-diphenyltetrazolium bromide) cell viability assay ( Supplementary Figures S1B, C ). […] The CC50 values of Gly2 analog was in the micromolar range. The selectivity index (SI) for the compound was calculated as the ratio between cytotoxicity (CC50) and activity (IC50) against promastigotes ( Table 1 ).
For orientation: Tetrazolium assays rely on reduction of a dye to a coloured formazan, in cell work by metabolically active cells.
Consider `CC(=O)OC[C@H]1OC(OC(C)C)[C@H](OC(C)=O)[C@@H](OC(C)=O)[C@@H]1OC(C)=O` (some centres unmarked) [Gly9], for which the “SI Macrophages” value is 7.111.

Take `CCCCCCOC1O[C@H](CO)[C@@H](O)[C@H](O)[C@H]1O` (some centres unmarked) [Gly3]: the “SI Macrophages” value turned out to be 132.090.

Turning to `CCOC1O[C@H](CO)[C@@H](O)[C@H](O)[C@H]1NC(C)=O` (stereo partly drawn) [Gly1, ethyl glycoside N-Acetyl-D-glucosamine], the “SI Macrophages” value stood at 3.813.

Turning to `CC(=O)OC[C@H]1OC(OCCC(C)C)[C@H](OC(C)=O)[C@@H](OC(C)=O)[C@@H]1OC(C)=O` (some centres unmarked) [Gly6], the “SI Macrophages” value is recorded as 303.823.

As to `CCCOC1O[C@H](COC(C)=O)[C@@H](OC(C)=O)[C@H](OC(C)=O)[C@H]1NC(C)=O` (some centres unmarked) [Gly10], the “SI Macrophages” value amounted to 9.476.

Take `CCCCOC1O[C@H](COC(C)=O)[C@@H](OC(C)=O)[C@H](OC(C)=O)[C@H]1OC(C)=O` (some centres unmarked) [Gly4]: the “SI Macrophages” value worked out at 36.304.

Regarding `CCCCO[C@H]1O[C@H](COC(C)=O)[C@@H](OC(C)=O)[C@H](OC(C)=O)[C@H]1NC(C)=O` [Gly12], the “SI Macrophages” value came out at 2.936.

As for `CC(=O)N[C@H]1[C@@H](OCCC(C)C)O[C@H](COC(C)=O)[C@@H](OC(C)=O)[C@@H]1OC(C)=O` [Gly11], the “SI Macrophages” value was 4.162.

`CCCOC1O[C@H](COC(C)=O)[C@@H](OC(C)=O)[C@H](OC(C)=O)[C@H]1OC(C)=O` (stereo partly drawn) [Gly8, (2R,3R,4S,5R)-2-(acetoxymethyl)-6-propoxytetrahydro-2H-pyran-3,4,5-triyl triacetate]: the “SI Macrophages” value came out at 599.375.

For `CCOC1O[C@H](COC(C)=O)[C@@H](OC(C)=O)[C@H](OC(C)=O)[C@H]1OC(C)=O` (some centres unmarked) [Gly7], the “SI Macrophages” value came to 3.883.

For `CCCCCCOC1O[C@H](COC(C)=O)[C@@H](OC(C)=O)[C@H](OC(C)=O)[C@H]1OC(C)=O` (some centres unmarked) [Gly5], the “SI Macrophages” value was 26.666.
